Measured values from several laboratories, pooled; numbers as filed in NIAID ChemDB.

All rows: tests in culture; organism: Candida parapsilosis; endpoint: MIC

An empty or dashed field is not shown.

| smiles | strain or isolate | read by | conditions | value |
|---|---|---|---|---|
| Cc1nn2c(-c3ccncc3)nnc2s/c1=N/Nc1ccc(S(N)(=O)=O)cc1 | ATCC 22019 | broth dilution | - | 25 µg/mL |
| COC(=O)c1c(C)oc2cc(C(=O)C(Cl)Cl)c(O)c(Cl)c12 | ATCC 22019 | - | - | 100 µg/mL |
| O=[N+]([O-])c1cccc(/C=N\O)c1 | - | - | - | 3010 µM |
| N=c1oc2ccccc2c2csc(N)c12 | ATCC 22019 | broth dilution | - | 32 µg/mL |
| N=C(N)c1ccc(OCCCCCCOc2ccc(C(=N)N)cc2)cc1 | Cp2 | agar diffusion / agar | - | 15 µg/mL |
| CC(C)=CCC/C(C)=C/CN(C)C(=N)N(C)C/C=C(\C)CCC=C(C)C | ATCC 22019 | - | - | 31.2 µg/mL |
| Cc1nn2c(-c3ccncc3)nnc2s/c1=N/Nc1ccccc1 | ATCC 22019 | broth dilution | - | 12.5 µg/mL |
| CCCCCCCCCCCCCCCC(=O)NCCCN | ATCC 22019 | broth dilution | - | 4 µg/mL |
| COc1cc(C[C@@]2(O)CO[C@H](c3ccc(O)c(OC)c3)[C@H]2CO[C@@H]2O[C@H](CO)[C@@H](O)[C@H](O)[C@H]2O)ccc1O | ATCC 22019 | MTT | - | 1.5 µg/mL |
| COc1ccc(/C=N/O)cc1 | - | - | - | 3310 µM |
| CCNC(=S)NNC(=O)c1cn2ccccc2n1 | ATCC 22019 | broth dilution | - | 64 µg/mL |
| Cc1ccc(C(O)c2cccc(C(O)CCn3ccnc3)c2)cc1 | RTCC 1079 | broth dilution | - | >64 µg/mL |
| CN(Cc1ccc(NS(=O)(=O)c2ccccc2)cc1)CC(O)(Cn1cncn1)c1ccc(F)cc1F | CAPA2 | resazurin | - | 0.58 µg/mL |
| OC(CCn1ccnc1)c1cccc(C(O)c2ccc(Cl)c(Cl)c2)c1 | RTCC 1079 | broth dilution | - | >64 µg/mL |
| O=C(NNC(=S)Nc1ccc(Br)cc1)c1cn2ccccc2n1 | ATCC 22019 | broth dilution | - | 64 µg/mL |
| CCOC(=O)C1C(=O)C=C(c2ccc(Br)cc2)CC1c1ccc(C2CC(c3ccc(Br)cc3)=CC(=O)C2C(=O)OCC)cc1 | Clinical isolate | - | - | 6.25 µg/mL |
| COc1ccc(N2C(=O)CC(C)C2=O)cc1 | CCC 124-2000 | broth dilution / turbidity | - | 125 µg/mL |
| COc1ccc(-c2nnc(SCC(O)(Cn3cncn3)c3ccc(F)cc3F)n2N)cc1 | ATCC 22019 | broth dilution | - | >64 µg/mL |
| O=C(CCn1ccnc1)c1cccc(O)c1 | RTCC 1018 | broth dilution | - | >64 µg/mL |
| CO/N=C/C(C)(C)C(O)(Cn1cncn1)c1ccc(Cl)cc1 | - | visual reading | - | 4 µg/mL |
| Cc1ccc(NC(=S)NNC(=O)c2cn3ccccc3n2)cc1 | ATCC 22019 | broth dilution | - | 64 µg/mL |
| CC(C)(O)c1cn(-c2ccc(Cl)cc2)nn1 | URM 4607 | broth dilution | - | 128 µg/mL |
| C[C@@H]1C(=O)N(CCc2ccccc2)C(=O)[C@@H]1C | CCC 124-2000 | broth dilution / turbidity | - | 62.5 µg/mL |
| C/C(=N/O)C(Cl)(Cl)Cl | - | - | - | 3220 µM |
| CN(Cc1ccc(NS(=O)(=O)c2ccc([N+](=O)[O-])cc2)cc1)CC(O)(Cn1cncn1)c1ccc(F)cc1F | CAPA1 | resazurin | - | 1.91 µg/mL |
| O/N=C\c1ccccc1O | - | - | - | 1800 µM |
| O=C(NNC(=S)Nc1ccc(F)cc1F)c1cc2ccccc2[nH]1 | ATCC 22019 | agar | - | 100 µg/mL |
| COC(=O)/C(C)=C1\C(=O)[C@H](O)[C@]2(C)C3=C1[C@]14OC(=O)C5=C1C[C@H]1[C@](O)(COC(=O)/C(C)=C/COC(=O)CCC(=O)OC5)[C@H]5C[C@H]5[C@]1(C)[C@@H]4C[C@]3(O)[C@H]1C[C@H]12 | ATCC 22019 | broth dilution | - | 128 µg/mL |
| CC(C)=CCN=C(NCC=C(C)C)NCC=C(C)C | ATCC 22019 | - | - | 31.2 µg/mL |
| CC1CC2=C(O1)c1ccccc1C(=O)C2=O | Clinical isolate | broth dilution | - | 16 µg/mL |
| CCOC(=O)C1C(=O)C=C(c2ccccc2)CC1c1ccc(C2CC(c3ccccc3)=CC(=O)C2C(=O)OCC)cc1 | Clinical isolate | - | - | 100 µg/mL |
| Cc1n[nH]c(=O)n1CCCCCCn1c(C)n[nH]c1=O | - | - | - | 7.5 µg/mL |
| Cc1nnsc1C(=O)NNC(=S)Nc1ccccc1Br | ATCC 22019 | agar | - | 100 µg/mL |
| CCOC(=O)C1C(=O)C=C(c2ccc(Cl)cc2)CC1c1ccc(C2CC(c3ccc(Cl)cc3)=CC(=O)C2C(=O)OCC)cc1 | Clinical isolate | - | - | 12.5 µg/mL |
| COc1ccc(N/N=c2/sc3nnc(-c4ccncc4)n3nc2C)cc1 | ATCC 22019 | broth dilution | - | 25 µg/mL |
| O=C(/C=C/c1c(Cl)cccc1Cl)c1c[nH]c2ccccc12 | NRRL Y-12696 | broth dilution | - | 25 µg/mL |
| CCCCCCCCCCCCCCCC(=O)NC(CCCCN)C(=O)NC(CCCCN)C(N)=O | ATCC 22019 | broth dilution | - | 0.5 µg/mL |
| C[C@@H]1C(=O)N(CCCCc2ccccc2)C(=O)[C@@H]1C | CCC 124-2000 | broth dilution / turbidity | - | 62.5 µg/mL |
| O=c1[nH]nc(-c2ccccc2)n1CCCCCCn1c(-c2ccccc2)n[nH]c1=O | - | - | - | 7.5 µg/mL |
| O=C(NNC(=S)Nc1ccc(Cl)cc1)c1cn2ccccc2n1 | ATCC 22019 | broth dilution | - | 32 µg/mL |
| CCCc1ccc(NS(=O)(=O)c2ccc(CN(C)CC(O)(Cn3cncn3)c3ccc(F)cc3F)cc2)cc1 | CAPA1 | resazurin | - | 0.12 µg/mL |
| O=C(NNC(=S)Nc1ccc(F)cc1)c1cc2ccccc2[nH]1 | ATCC 22019 | agar | - | 100 µg/mL |
| CC(=O)N1CCN(c2ccc(OC[C@H]3CO[C@](Cn4ccnc4)(c4ccc(Cl)cc4Cl)O3)cc2)CC1 | NRRL Y-12696 | broth dilution | - | 1.56 µg/mL |
| Cc1ccc(/C=N/Nc2ccnc3cc(Cl)ccc23)cc1 | - | - | - | 40 µg/mL |
| CCC[CH2][Sn+3].[S-]C(=Nc1ccccc1Cl)N/N=C(\c1ccccc1)c1ccccn1 | ATCC 22019 | broth dilution | - | 52.24 µM |
| Cc1ccc(C2CC(c3ccc4ccccc4c3)=Cc3[nH][nH]c(=O)c32)cc1 | - | - | - | 25 µg/mL |
| C[C@H]1[C@H](O)[C@@H](C)/C=C/C=C/C=C/C=C/C=C/C=C/C=C/[C@H](O[C@@H]2O[C@H](C)[C@@H](O)[C@H](N)[C@@H]2O)C[C@@H]2O[C@](O)(C[C@@H](O)C[C@@H](O)CC[C@H](O)[C@@H](O)C[C@@H](O)CC(=O)O[C@H]1C)C[C@H](O)[C@H]2C(=O)O | NBRC 1396 | broth dilution | 24 h | 0.5 µg/mL |
| CC1=C2C3=C4[C@](C)([C@@H]5C[C@@H]5[C@@]4(O)C[C@@H]4[C@]35OC(=O)C3=C5C[C@H]5[C@](O)(COC(=O)/C(C)=C/COC(=O)CCC(=O)OC3)[C@H]3C[C@H]3[C@]45C)[C@H](O)[C@]2(O)OC1=O | ATCC 22019 | broth dilution | - | >256 µg/mL |
| CN(Cc1ccc(S(=O)(=O)Nc2ccccc2)cc1)CC(O)(Cn1cncn1)c1ccc(F)cc1F | CAPA2 | resazurin | - | 0.12 µg/mL |
| Fc1ccc(Nc2nnc(-c3cn4ccccc4n3)o2)cc1 | ATCC 22019 | broth dilution | - | 64 µg/mL |
| CC1CC(=O)N(c2ccc(Cl)cc2)C1=O | CCC 124-2000 | broth dilution / turbidity | - | 250 µg/mL |
| CCOc1ccc2nc3cc(N=C4NC(=O)/C(=C\C=C\c5ccc([N+](=O)[O-])o5)S4)ccc3c(N)c2c1 | - | broth dilution | - | 750 µg/mL |
| OC(CCn1ccnc1)c1ccc(Br)cc1 | RTCC 1018 | broth dilution | - | 64 µg/mL |
| Cn1cccc1CC(=O)NNC(=O)NCCCCCCNC(=O)NNC(=O)Cc1cccn1C | - | - | - | 7.5 µg/mL |
| CC(C)CC1NC(=O)CC(CCCCCCCCC(C)O)OC(=O)C(CC(C)C)NC(=O)C(CC(C)C)NC(=O)C(CC(C)C)NC(=O)C(C(C)C)NC(=O)C(CC(=O)O)NC(=O)C(CC(C)C)NC1=O | MTCC 1965 | absorbance | - | 1 µg/mL |
| CCC[CH2][Sn+3].O=[N+]([O-])c1ccccc1N=C([S-])N/N=C(\c1ccccc1)c1ccccn1 | ATCC 22019 | broth dilution | - | 6.42 µM |
| COc1ccccc1NC(=S)NNC(=O)c1cc2ccccc2cn1 | ATCC 22019 | agar | - | 50 µg/mL |
| O=[N+]([O-])c1ccc(/C=N\O)cc1 | - | - | - | 3010 µM |
| OC(CCn1ccnc1)c1cccc(C(O)c2ccc(Cl)cc2)c1 | RTCC 1018 | broth dilution | - | >64 µg/mL |
| CN(Cc1ccc(S(=O)(=O)NC(C)(C)C)cc1)CC(O)(Cn1cncn1)c1ccc(F)cc1F | CAPA2 | resazurin | - | 0.84 µg/mL |
| Nn1c(SCC(O)(Cn2cncn2)c2ccc(F)cc2F)nnc1-c1cccc(Br)c1 | ATCC 22019 | broth dilution | - | >64 µg/mL |
| CC1=C2C(=O)c3c(C)coc3C[C@@]2(C)[C@H](O)C[C@H]1O | ATCC 22019 | broth dilution | - | >256 µg/mL |
| Nn1c(SCC(O)(Cn2cncn2)c2ccc(F)cc2F)nnc1-c1ccc(O)cc1 | ATCC 22019 | broth dilution | - | >64 µg/mL |
| C/C(=N\NC([S-])=Nc1ccccc1[N+](=O)[O-])c1ccccn1.CCC[CH2][Sn+3] | ATCC 22019 | broth dilution | - | 7.13 µM |
| OC(Cn1cncn1)(Cn1cncn1)c1ccc(F)cc1F | ATCC 22019 | - | - | 3.1 µM |
| CCCCCCCCCCCC(=O)NCCCCN | ATCC 22019 | broth dilution | - | 64 µg/mL |
| O=C1c2ccccc2CC1Cn1ccnc1 | RTCC 1018 | broth dilution | - | >64 µg/mL |
| C/C1=C\C(=O)c2c(C)coc2C/C(C)=C/CC1 | ATCC 22019 | broth dilution | - | >256 µg/mL |
| CCC(C)CC(C)CCCCCCCCC(=O)N[C@H]1C[C@@H](O)[C@H](NCCN)NC(=O)[C@@H]2[C@@H](O)CCN2C(=O)[C@H]([C@H](O)CCN)NC(=O)[C@H]([C@H](O)[C@@H](O)c2ccc(O)cc2)NC(=O)[C@@H]2C[C@@H](O)CN2C(=O)[C@H]([C@@H](C)O)NC1=O | 9150 | broth dilution | - | 1 µg/mL |
| COc1cc2oc(=O)ccc2cc1CC(O)C(C)(C)O | - | - | - | >250 µg/mL |
| Cc1ccc(N2N=C(c3c[nH]c4ccccc34)CC2c2ccc(Cl)c(Cl)c2)cc1 | NRRL Y-12696 | broth dilution | - | 100 µg/mL |
| O=C(NNC(=S)Nc1ccc(F)cc1)c1cn2ccccc2n1 | ATCC 22019 | broth dilution | - | 64 µg/mL |
| O=C(/C=C/c1cc(Cl)cc(Cl)c1)c1c[nH]c2ccccc12 | NRRL Y-12696 | broth dilution | - | 25 µg/mL |
| O=c1[nH][nH]c2c1C(c1ccc(Br)cc1)CC(c1ccc3ccccc3c1)=C2 | - | - | - | 6.25 µg/mL |

Repeating the final 4 entries:

smiles,strain or isolate,read by,conditions,value
Cc1ccc(N2N=C(c3c[nH]c4ccccc34)CC2c2ccc(Cl)c(Cl)c2)cc1,NRRL Y-12696,broth dilution,-,100 µg/mL
O=C(NNC(=S)Nc1ccc(F)cc1)c1cn2ccccc2n1,ATCC 22019,broth dilution,-,64 µg/mL
O=C(/C=C/c1cc(Cl)cc(Cl)c1)c1c[nH]c2ccccc12,NRRL Y-12696,broth dilution,-,25 µg/mL
O=c1[nH][nH]c2c1C(c1ccc(Br)cc1)CC(c1ccc3ccccc3c1)=C2,-,-,-,6.25 µg/mL

Conditions beyond the fields shown may differ between rows.